Pooled drug test results. Numbers come from NIAID ChemDB, via PubChem.

Common to all: whole-cell or culture tests; agent: Mycobacterium tuberculosis

MIC bound comes from a single tested concentration.

compound | strain | method | endpoint | tested at | result
CC1=CC(=O)C=CC1=O | H37Rv |  | MIC |  | >100 µg/mL
CCCN1CCN(c2ccc([N+](=O)[O-])c3no[n+]([O-])c23)CC1 | H37Rv | resazurin | MIC bound |  | <6.25 µg/mL
FC(F)(F)c1ccc(CNCCNCC23CC4CC(CC(C4)C2)C3)cc1 |  |  | MIC |  | 25 µM
O=C1CC(c2ccccc2)Oc2c(I)cccc21 |  |  | inhibition | 12.5 µg/mL | 5%
NP(N)(=O)c1ccccc1 | H37Rv |  | MIC |  | >100 µg/mL
N#CCCN(CCCN(C(=O)Nc1ccc(NC(=O)N(CCCN(CCC#N)C(N)=O)c2ccccc2)cc1)c1ccccc1)C(N)=O | H37Rv | resazurin | inhibition | 6.25 µg/mL | 11%
CCCCC(CC)CN1CN(CC(CC)CCCC)CC(C)(NCCNCc2cc(OC)c(OC)c(OC)c2)C1 |  |  | MIC |  | 12.5 µM
CCOc1ccccc1CNCCNCCc1ccc(Cl)cc1Cl |  |  | MIC |  | 25 µM
CCN(CC)CCOC(=O)c1ccccc1Oc1ccc(N)cc1 | H37Rv |  | MIC |  | >100 µg/mL
OC[C@@H](O)[C@@H](O)[C@H](O)c1cnc(C[C@H](O)[C@H](O)CO)cn1 | H37Rv | BACTEC | MIC |  | ≥12.5 µg/mL
COc1ccc(C2Oc3cc(OC)cc(OC)c3C(=O)C2Br)cc1 | H37Rv |  | inhibition | 12.5 µg/mL | 0%
CCOC(=O)NC1C2CC(=O)OC(O2)C1OC(C)=O | H37Rv | BACTEC | inhibition | 12.5 µg/mL | 12%
COc1ccccc1CCNCCNC/C=C(\C)CCC=C(C)C |  |  | MIC |  | 50 µM
Cc1ccc2ccccc2c1[N+](=O)[O-] | H37Rv |  | MIC |  | >100 µg/mL
COC1(OC)CC2OC1C1N=NN(C(=O)OC(C)(C)C)C21 | H37Rv | BACTEC | MIC bound |  | >12.5 µg/mL
CCOc1cc(C)cc(C)c1N(C)C(=O)CCC(=O)O | H37Rv |  | MIC |  | 100 µg/mL
Cc1noc(NS(=O)(=O)c2ccc(N=Nc3ccc(O)cn3)cc2)c1C | H37Rv | BACTEC | MIC bound |  | >12.5 µg/mL
Nc1ccc(S(=O)(=O)c2ccc(N)cc2S(N)(=O)=O)cc1 | H37Rv |  | MIC |  | >100 µg/mL
CCCCCNCCNCCc1ccccc1F |  |  | MIC |  | 25 µM
Cc1cc(C)nc(-c2ccc([N+](=O)[O-])cc2)n1 | H37Rv |  | MIC |  | >100 µg/mL
NNC(=O)c1nc2ccccc2[nH]1 | H37Rv | BACTEC | MIC |  | ≥12.5 µg/mL
CCOC(=O)c1cc(C)n(-c2cc(C(=O)OC)ccc2OC)c1C | H37Rv |  | MIC |  | >100 µg/mL
CCc1oc(=O)c(Cc2c(OC(C)=O)cc(OC(C)=O)c3c2OC(c2ccccc2)CC3=O)c(OC(C)=O)c1C | H37Rv | BACTEC | inhibition | 12.5 µg/mL | 0%
CCCCCCCCCCCNCCNC1CCC(C)CC1 |  |  | MIC |  | 25 µM
C=CCNCCNCCCCCCCCCCC |  |  | MIC |  | 50 µM
O=C(Nc1ccccc1)c1cc2ccccc2cc1O | H37Rv |  | MIC |  | >3.12 µg/mL
CCCCC(CC)CN1CN(CC(CC)CCCC)CC(C)(NCCNC(C)C)C1 |  |  | MIC |  | 25 µM
COc1cc2c(c(OC)c1O)-c1ccc(OC)c(=O)cc1[C@@H](NC(=O)C(F)(F)F)CC2 | H37Rv | BACTEC | MIC bound |  | >12.5 µg/mL
CC1(C)[C@H]2CC[C@@H](CNCCNCCc3ccc(Cl)cc3Cl)[C@@H]1C2 |  |  | MIC |  | 25 µM
NC(=O)c1cc(O)ccc1O | H37Rv |  | MIC |  | >100 µg/mL
c1ccc2c(c1)CC(NCCNC13CC4CC(CC1C4)C3)C2 |  |  | MIC |  | 50 µM
CC1=C(O)C(=O)CC1 | H37Rv |  | MIC |  | >100 µg/mL
CCN(CC)c1cc2oc3cc(N)cc(=N)c-3nc2cc1C | PAS-R |  | MIC |  | 0.8 µg/mL
COc1ccc(/C=C/C(=O)c2ccc(F)cc2O)cc1 |  |  | inhibition | 12.5 µg/mL | 63%
c1cnc2cc3oc4ccccc4c3cc2c1 | H37Rv |  | MIC |  | >100 µg/mL
COc1cc(OC)c2cc(C(=O)c3ccc(C#N)cc3)c(=O)oc2c1 | H37Rv | BACTEC | MIC bound |  | >12.5 µg/mL
Clc1ncc(Br)c2ccccc12 | H37Rv |  | MIC |  | 50 µg/mL
Oc1ccc2ccccc2c1CN1CCOCC1 | H37Rv | BACTEC | MIC bound |  | >12.5 µg/mL
COc1ccc(CCNCCNCCC2=CCCCC2)cc1 |  |  | MIC |  | 12.5 µM
CCOC(=O)N/N=C1\CCCCCC\C1=N/NC(=O)OCC | H37Rv | BACTEC | MIC bound |  | >12.5 µg/mL
O=C1c2ccccc2OC(c2ccccc2)C1(Br)Br |  |  | EC50 |  | >12.5 µg/mL
O=C1Nc2c(Cl)cc(Cl)cc2C1=O | H37Rv |  | MIC |  | >100 µg/mL
CC(C)=CCC/C(C)=C/CN1C(=O)CN(C)C1=O | H37Rv | BACTEC | MIC bound |  | >12.5 µg/mL
CCOC(=O)CCCC(=O)OCC | H37Rv |  | MIC |  | >100 µg/mL
CCCCCCCCCCCNCCNCCc1ccc(OC)c(OC)c1 |  |  | MIC |  | 12.5 µM
CC1=NN(C(=O)CC(=O)Nc2ccccc2F)C(=O)C1N=Nc1ccccc1[N+](=O)[O-] | H37Rv | BACTEC | MIC bound |  | >12.5 µg/mL
O=C(/C=C/c1ccccn1)c1ccccn1 |  |  | inhibition | 12.5 µg/mL | 42%
NCCCNCCCCNCCCN.O=P(O)(O)O | H37Rv |  | MIC |  | >100 µg/mL
COC(=O)C1C(O)C(C)C(OC(C)=O)C(C)/C=C\C=C(/C)C(=O)Nc2c(C)c(OC(C)=O)c3c(c2O)C(=O)C(C)=C2OCOC(=C23)/C(C)=C/C(C)(O)C(O)C(C)C1O | H37Rv | BACTEC | inhibition | 12.5 µg/mL | 95%
CCCCCCCCCCCNCCNCc1ccccc1OCC |  |  | MIC |  | 25 µM
COc1ccc(/C=C/C(=O)c2cc(C(=O)O)ccc2O)cc1 |  |  | inhibition | 12.5 µg/mL | 0%
CCOc1ccc(NC(=O)C(=O)Nn2c(N)nnc2N)cc1 | H37Rv | BACTEC | MIC bound |  | >12.5 µg/mL
O=C(O)CC(C(=O)O)c1ccccc1 | H37Rv |  | MIC |  | >100 µg/mL
O=C1C=C(Nc2ccc(S(=O)(=O)Nc3nccs3)cc2)c2ccccc2C1=O | H37Rv | resazurin | inhibition | 6.25 µg/mL | 62%
CC(NCCNC1CCCCCCC1)C12CC3CC(CC(C3)C1)C2 |  |  | MIC |  | 50 µM
Cc1nc2ccccc2cc1Cl | H37Rv |  | MIC |  | >100 µg/mL
Nc1nc(N)c2nnsc2n1 | H37Rv | resazurin | MIC bound |  | >6.25 µg/mL
Cc1ccncc1 | H37Rv |  | MIC |  | >100 µg/mL
CC1(C)[C@@H]2CC[C@@]1(C)[C@@H](NCCNC1CCCCCCC1)C2 |  |  | MIC |  | 12.5 µM
CO[C@]1([C@@H](Cl)c2ccccc2)C(=O)N(C)/C(=C/c2ccccc2)C(=O)N1C | H37Rv | BACTEC | MIC |  | ≥12.5 µg/mL
NNc1ccccc1C(=O)O | H37Rv |  | MIC |  | 100 µg/mL

The last 8 rows once more:

{"compound": "O=C1C=C(Nc2ccc(S(=O)(=O)Nc3nccs3)cc2)c2ccccc2C1=O", "strain": "H37Rv", "method": "resazurin", "endpoint": "inhibition", "tested at": "6.25 µg/mL", "result": "62%"}
{"compound": "CC(NCCNC1CCCCCCC1)C12CC3CC(CC(C3)C1)C2", "endpoint": "MIC", "result": "50 µM"}
{"compound": "Cc1nc2ccccc2cc1Cl", "strain": "H37Rv", "endpoint": "MIC", "result": ">100 µg/mL"}
{"compound": "Nc1nc(N)c2nnsc2n1", "strain": "H37Rv", "method": "resazurin", "endpoint": "MIC bound", "result": ">6.25 µg/mL"}
{"compound": "Cc1ccncc1", "strain": "H37Rv", "endpoint": "MIC", "result": ">100 µg/mL"}
{"compound": "CC1(C)[C@@H]2CC[C@@]1(C)[C@@H](NCCNC1CCCCCCC1)C2", "endpoint": "MIC", "result": "12.5 µM"}
{"compound": "CO[C@]1([C@@H](Cl)c2ccccc2)C(=O)N(C)/C(=C/c2ccccc2)C(=O)N1C", "strain": "H37Rv", "method": "BACTEC", "endpoint": "MIC", "result": "≥12.5 µg/mL"}
{"compound": "NNc1ccccc1C(=O)O", "strain": "H37Rv", "endpoint": "MIC", "result": "100 µg/mL"}

Neighbouring rows are from separate reports. Percent inhibition refers to the dose given; in toxicity tests it is the harm to the cells. ECn is the concentration giving n% inhibition of infection, replication or growth. An empty or dashed field is not shown.